We go through 7 compounds from patent US7645881B2, “Methods for treating hepatitis C” (PTC Therapeutics, Inc., priority 2004, dated 2010).

The subject of one experiment is HCV replicon. The experiment can be described thus: HCV replicon system (bicistronic replicon, Fluc reporter signal). Type of experiment: cell-based, hepatitis C virus. Background: Replicon systems follow genome replication, usually without infectious particles.
Experiment [1] relates to HCV-poliovirus (HCV-PV) chimera.
In experiment [2] the test system is HCV IRES-driven translation. The experiment can be described thus: Western blot of Fluc protein in HepGmono-4 cells (HCV IRES-driven translation). The following applies: 20 hours, data not shown. (In general: Immunoblotting shows a protein as a band on a membrane.)

`Cc1nc2sc(C(=O)OC(C)(C)C)c(N)c2c(C)c1OC(=O)N1CCCC1`: in the experiment with HCV replicon, the half-inhibitory concentration (IC50) – broadly, the point on the concentration scale where inhibition reaches its midpoint – was > 2000 nM.
Same read-out and setting: the figure for `Cc1nc2sc(C(=O)OC(C)(C)C)c(N)c2c(C)c1OC(=O)N1CCOCC1` is > 2000 nM.
In experiment [1], `CN1CCN(C(=O)c2sc3nc4c(c(C(F)(F)F)c3c2N)CCCCC4)CC1` [Compound 5] yielded a concentration for half-maximal inhibition (IC50) of 500 to 2000 nM.
As to `Nc1c(C(=O)Nc2ccc(C(F)(F)F)cc2)sc2nc3c(cc12)CCCCC3` [Compound 29], in experiment [1], the IC50 lay within 500 to 2000 nM.
The same measure, in the same setting: the figure for `CC(C)(C)OC(=O)c1sc2nc3c(c(-c4cccs4)c2c1N)CCCC3` [Compound 34] is 500 to 2000 nM.
On to `CCc1c(C)nc2sc(N)c(C#N)c2c1C` [Compound 35, 2-amino-5-ethyl-4,6-dimethylthieno[2,3-b]pyridine-3-carbonitrile], for which the concentration for half-maximal inhibition (IC50) in experiment [1] is < 500 nM.
`COc1ccc(C[C@H](N)C(=O)N[C@H]2[C@@H](O)[C@H](n3cnc4c(N(C)C)ncnc43)O[C@@H]2CO)cc1` [puromycin]: the “HCV IRES-driven protein production (luciferase reporter protein level, Western blot)” value in experiment [2] is reported as “inhibited”.
